Experimental data from publication PMC8861615, “Searching for plant-derived antivirals against dengue virus and Zika virus” (Virology Journal, 2022).

How the values were obtained:
[1] = system: DENV-2; experiment: Anti-DENV-2 activity by viral CPE reduction and MTT method in BHK-21 cells; format: cell-based, Dengue virus serotype 2; details: compounds; SI = ratio CC50/EC50, BHK-21
Protocol: (§1) Plant extracts were screened for their cytotoxic and anti-ZIKV and anti-DENV activities in Vero cells and BHK-21, respectively, in 96-well culture plates by observing the reduction of the viral cytopathic effect (CPE) and then measured by the MTT method. The crude extracts were dissolved in 4% DMSO aqueous solution, and their concentration was normalized to 50 µg/ml with Eagle's minimum essential medium (MEM) supplemented with 2% fetal bovine serum (FBS). Briefly, 8 × 10^3 of BHK-21 cells or 1 × 10^4 of Vero cells per well were seeded in a 96-well plate and incubated for 24 h at 37 °C and 5% CO2 atmosphere. Extract solution and virus suspension, at a multiplicity of infection (m.o.i.) of 2, for both viruses, were simultaneously added on 70% confluent monolayers. Each extract was tested in duplicate. Controls of untreated infected and untreated uninfected cells incubated with or without DMSO were included. Interferon-α 2B, in concentrations of 500 and 1000 IU/mL, was used as a positive antiviral control in all antiviral assays. […] Briefly, the supernatants were removed, and 30 µl of a stock solution of MTT (2 mg/ml) dissolved in phosphate-buffered saline were added to each well. After 90 min of incubation at 37 °C, 130 µl of DMSO were added to each well, and plates were homogenized for 5 min at 500 rpm. The absorbance values of each reaction were measured in an ELISA reader (Spectra Max, Molecular Devices, USA) at λ540 nm. […] Cytotoxicity (CC50) and anti-ZIKV/DENV-2 (CE50) experiments were performed in duplicate and repeated at least three times.
(§2) Viral CPE and cell viability were observed by optic microscopy and measured by the MTT method as previously described. […] The experiments were performed in duplicate and repeated at least three times.
(§3) Bioassay data were normalized to untreated uninfected cells and the EC50 and CC50 values were obtained using GraphPad Prism 5 based on nonlinear logistic regression of the experimental dose–response curves. […] The CC50 and EC50 values ratio was used as a selectivity index (SI).

[2] = system: ZIKV; format: cell-based, Zika virus; details: compounds; SI = ratio CC50/EC50, Vero
Protocol: as §1, §2, §3

| Structure (SMILES) | DENV-2 SI [1] | ZIKV SI [2] |
| --- | --- | --- |
| CO[C@@H]1C=C[C@@]23c4cc5c(cc4C(O)O[C@H]2CN(C)[C@H]3C1)OCO5 (stereo partly shown) [Pretazettine] | 6.8 | 3.8 |
| CC(=O)O[C@H]1[C@H]2c3cc4c(cc3CN3CCC(=C[C@@H]1O)[C@H]23)OCO4 [1-acetyl-lycorine] |  | 1.0 |
| O=C1NC2C(=C[C@H](O)[C@@H](O)[C@H]2OC2OCC(O)C(O)C2O)c2cc3c(c(O)c21)OCO3 (stereo partly drawn) [Narciclasine-4-O-β-D-xylopyranoside, narciclasine-4-O-β-D-xylopyranoside] | 4.9 | 6.5 |
| O[C@H]1[C@H]2c3cc4c(cc3CN3CCC(=C[C@@H]1O)[C@H]23)OCO4 [Lycorine] | 8.6 | 3.8 |
